Results on 1 sequence are retold here after publication PMC5712549.

The test system of the data set is HSF1-like HSE-binding protein, 51 kDa (anti-human HSF1 reactive) (Entamoeba histolytica (clones A[8] and C2[20])). Kind of data set: UV-crosslinking + anti-HSF1 western blot. The conditions noted are these: emetine-grown trophozoites, poly[d(I-C)]; protein in an extract; label: 32P. (In general: A western blot detects proteins with antibodies after separation by electrophoresis.)

For at least one entry, the source does not settle the construct or the ends of the probe. Where cells or extracts were used, other partners may take part.

“ATAGAAATTTTTCATA (double strand) [HSE-S-16 (EhPgp5 HSE)]”: the binding result is on record as “binds”.
